Measured values from several laboratories, pooled; numbers as filed in NIAID ChemDB.

Common to all: host cell toxicity; cell line: VERO; endpoint: CC50

Neighbouring rows are from separate reports.

| SMILES | value |
|---|---|
| O=[N+]([O-])c1cn2c(n1)SCC(OCc1ccc(OC(F)(F)F)cc1)C2 | >128 µM |
| Nc1nc(Cl)nc2c1ncn2[C@H]1O[C@H](CO)[C@@H](F)[C@@H]1F | >100 µM |
| C[C@@]1(CO)C[C@H]2[C@@H](OC(=O)[C@H](O)[C@@H](NC(=O)c3ccccc3)c3ccccc3)C3=C(C[C@](C)(O)[C@H]2C1)C(=O)OC3 | 349.8 µg/mL |
| CCOc1ccc2c(NN)cc(C)nc2c1 | 25.2 µg/mL |
| CCc1nc2ccc(Cl)cn2c1C(=O)NCc1ccc(N2CCC3(CC2)OC[C@H](C)O3)c(F)c1 | >32 µM |
| Cc1ccc(C2NC(=O)C3NC(=O)C(c4cc(O)cc(O)c4)NC(=O)C(NC(=O)C(N)Cc4ccc(O)cc4)Cc4c[nH]c5cc(ccc45)-c4cc3cc(c4O)Oc3ccc(cc3)CC(C(=O)NC(C(=O)O)c3ccc(O)c(O)c3)NC2=O)cc1Cl | >200 µg/mL |
| O=[N+]([O-])c1cn2c(n1)SCC(OCc1ccc(OCc3ccccc3)cc1)C2 | >128 µM |
| CC(=O)O[C@H]1C[C@H](n2cc(C)c(=O)[nH]c2=O)O[C@@H]1COS(=O)(=O)NC(=O)O[C@H]1O[C@H](COCc2ccccc2)[C@@H](OCc2ccccc2)[C@H](OCc2ccccc2)[C@H]1OCc1ccccc1 | 75 µg/mL |
| O=c1ccn(C[C@H]2C[C@H]2[C@H](O)CO)c(=O)[nH]1 | >100 µM |
| CC(C)O[C@@H]1[C@H](OC(C)C)[C@@H](COS(=O)(=O)NC(=O)O[C@H]2O[C@H](COC(=O)c3ccccc3)[C@@H](OC(=O)c3ccccc3)[C@H](OC(=O)c3ccccc3)[C@H]2OC(=O)c2ccccc2)O[C@H]1n1ccc(=O)[nH]c1=O | 100 µg/mL |
| CCN(CC)C(=O)c1ccc2nc3ccccc3c(NC3CCN(Cc4ccccc4)CC3)c2c1 | 55 µM |
| Nc1nc2c(ncn2C=C2CC2CO)c(=O)[nH]1 | 100 µM |
| Nc1nc2c(ncn2C[C@H]2C[C@H]2[C@H](O)CO)c(=O)[nH]1 | >100 µM |
| CC(C)c1ccc(NC(=O)N2CCC[C@H]2C(=O)N2CC[C@H]3[C@H]2[C@H](C)C(=O)N3C(=O)C2C(C)(C)C2(C)C)cc1 | 38 µM |
| CC1(C)C[C@@H]2[C@@H](OC(=O)[C@H](O)[C@@H](NC(=O)c3ccccc3)c3ccccc3)c3cocc3C[C@](C)(O)[C@H]2C1 | 135.5 µg/mL |
| CCCCc1ccc2nc(C)cc(N/N=C/c3ccc(OC)c4ccccc34)c2c1 | 9.8 µg/mL |
| CC1(C)C[C@H]2[C@H](OC(=O)[C@H](O)[C@@H](NC(=O)c3ccccc3)c3ccccc3)C3=C(COC3=O)C[C@](C)(O)[C@H]2C1 | 107.9 µg/mL |
| CC(C)c1ccc(NC(=O)N2CCC[C@H]2C(=O)N2CC[C@H]3[C@H]2[C@H](C)C(=O)N3C(=O)C2CC2)cc1 | 274 µM |
| C/C=N/NC(=O)c1ccncc1 | >63 µg/mL |
| CN1CC(OCc2ccc(OCc3ccccc3)cc2)Cn2nc([N+](=O)[O-])cc21 | >128 µM |
| Nc1nc(NC2CCCCC2)c2ncn(/C=C3/C[C@@H]3CO)c2n1 | 72 µM |
| Cc1ccn2c(C(=O)NCc3ccc(N4CCC5(CC4)OCC(C)CO5)c(F)c3)c(C)nc2c1 | >32 µM |
| O=[N+]([O-])c1cn2c(n1)S(=O)CC(OCc1ccc(OC(F)(F)F)cc1)C2 | >128 µM |
| CC1(C)C[C@H]2C=C(COC(=O)[C@H](O)[C@@H](NC(=O)c3ccccc3)c3ccccc3)[C@@]3(C=O)C[C@]3(C)[C@H]2C1 | 109.1 µg/mL |
| CCOP(=O)(OCC)C1=NOC(n2cc(C)c(=O)[nH]c2=O)C1 | >400 µM |
| Cc1ccn2c(C(=O)NCc3ccc(NCCOCCNC(=O)OC(C)(C)C)c(F)c3)c(C)nc2c1 | >32 µM |
| C[C@@]1(CO)C[C@H]2[C@H](OC(=O)[C@H](O)[C@@H](NC(=O)c3ccccc3)c3ccccc3)C3=C(C[C@](C)(O)[C@H]2C1)C(=O)OC3 | 325.4 µg/mL |
| CCc1nc2ccc(Cl)cn2c1C(=O)NCc1cccc(S(F)(F)(F)(F)F)c1 | >32 µM |
| NC(=O)CCN(CCC(N)=O)S(=O)(=O)c1cccc(Nc2nc(Nc3cccc(S(=O)(=O)N(CCC(N)=O)CCC(N)=O)c3)nc(Nc3ccc(-c4ccc(Nc5nc(Nc6cccc(S(=O)(=O)N(CCC(N)=O)CCC(N)=O)c6)nc(Nc6cccc(S(=O)(=O)N(CCC(N)=O)CCC(N)=O)c6)n5)cc4S(=O)(=O)O)c(S(=O)(=O)O)c3)n2)c1 | 375 µg/mL |
| CCN(CC)c1ccc(/C=N/Nc2cc(C)nc3ccc(C4CCCCC4)cc23)cc1 | 12.1 µg/mL |
| CC(C)O[C@@H]1[C@H](OC(C)C)[C@@H](COS(=O)(=O)NC(=O)O[C@H]2O[C@H](COC(=O)c3ccccc3)[C@@H](OC(=O)c3ccccc3)[C@H](OC(=O)c3ccccc3)[C@@H]2OC(=O)c2ccccc2)O[C@H]1n1ccc(=O)[nH]c1=O | 100 µg/mL |
| Cc1ccn2c(C(=O)NCc3ccc(S(F)(F)(F)(F)F)cc3)c(C)nc2c1 | >32 µM |
| CN1CCN(C(=O)c2ccc3nc4ccccc4c(Oc4ccccc4)c3c2)CC1 | 40 µM |
| CC1=C2CC(C)(C)C[C@H]2[C@H](OC(=O)[C@H](O)[C@@H](NC(=O)c2ccccc2)c2ccccc2)C2=C(C1)C(=O)OC2 | 212.7 µg/mL |
| CCCCCCCCCCCC(=O)OC[C@H](CO[C@@H]1O[C@H](CO)[C@@H](O)[C@H](O)[C@H]1O)OC(=O)CCCCCCCCCCC | >100 µg/mL |
| COc1ccc2nc(-c3ccccc3)cc(NN)c2c1 | 3.78 µg/mL |
| C/C(=N\NC(=O)c1ccncc1)C(F)(F)F | 58 µg/mL |
| O=c1ccn(C[C@H]2C[C@H]2CO)c(=O)[nH]1 | >100 µM |
| Nc1nc(Cl)nc2c1ncn2[C@@H]1O[C@H](CO)[C@@H](F)[C@@H]1F | >100 µM |
| CC1(C)C[C@H]2[C@@H](OC(=O)[C@H](O)[C@@H](NC(=O)c3ccccc3)c3ccccc3)C34COC(=O)C3(C4)C[C@@](C)(O)[C@H]2C1 | 77.3 µg/mL |
| O=c1[nH]cnc2c1ncn2C[C@H]1C[C@H]1[C@H](O)CO | >100 µM |
| CCN(CC)C(=O)c1ccc2nc3ccccc3c(NCCc3c[nH]c4ccccc34)c2c1 | 45 µM |
| CC1(C)C[C@@H]2[C@@H](OC(=O)[C@H](O)[C@@H](NC(=O)c3ccccc3)c3ccccc3)C3=C(C[C@](C)(O)[C@H]2C1)C(=O)OC3 | 414.8 µg/mL |

2 of the rows above, restated:

SMILES | value
CCCCCCCCCCCC(=O)OC[C@H](CO[C@@H]1O[C@H](CO)[C@@H](O)[C@H](O)[C@H]1O)OC(=O)CCCCCCCCCCC | >100 µg/mL
CC1(C)C[C@@H]2[C@@H](OC(=O)[C@H](O)[C@@H](NC(=O)c3ccccc3)c3ccccc3)C3=C(C[C@](C)(O)[C@H]2C1)C(=O)OC3 | 414.8 µg/mL

CCn is the concentration with n% toxicity to the cells.